Anti-infective test results gathered from many reports (values: NIAID ChemDB through PubChem).

Common to all: enzyme or target tests

Two numbers with a dash give a range or band. Neighbouring rows are from separate reports. ICn: concentration for n% inhibition. Blank or dashed fields: not listed here. Percent inhibition refers to the dose given; in toxicity tests it is the harm to the cells.

SMILES	protein	species	endpoint	tested at	value
COc1ccc2[nH]c(C)c(CC(=O)Nc3ccsc3-c3nc(C(=O)O)c(O)c(=O)[nH]3)c2c1	HCV polymerase	Hepatitis C virus	IC50		<25 µM
O=C(O)c1ccc2c(c1)nc(-c1ccc3nc(-c4cc5cccc(O)c5o4)ccc3c1)n2C1CCCCC1	NS5B polymerase	Hepatitis C virus	inhibition	33 µM	78.12%
Cc1ccccc1S(=O)(=O)Nc1cc(C#Cc2ccccc2)sc1C(=O)O	NS3 ATPase	Hepatitis C virus	IC50		<5 µM
COc1nc(Nc2ccc3[nH]ncc3c2)nc(NC2CC2)n1	Nonstructural protein 5B	Hepatitis C virus	inhibition	10 µg/mL	59%
Cc1ccc2cc(-c3nc4cc(C(=O)NC(Cc5c[nH]c6ccc(O)cc56)C(=O)O)ccc4n3C3CCCCC3)ccc2n1	NS5B polymerase	Hepatitis C virus	inhibition	33 µM	92.74%
CNC(=O)c1c(-c2ccc(F)cc2)oc2cc(-c3ncc[nH]3)c(OC(C)C)cc12	Nonstructural protein 5B	Hepatitis C virus	IC50		≤0.5 µM
Cc1ccc(C(=O)N(Cc2ccccc2C)c2cc(-c3ccccc3)sc2C(=O)O)cc1	NS3 ATPase	Hepatitis C virus	IC50		<5 µM
CN(C)CCNC(=O)c1ccc(-c2ccccc2)c(-c2ccc3cc(-c4nc5cc(C(=O)O)ccc5n4C4CCCCC4)ccc3n2)c1	NS5B polymerase	Hepatitis C virus	inhibition	33 µM	98.26%
COc1ccc(CNC(=O)Nc2cscc2-c2nc(C(=O)O)c(O)c(=O)[nH]2)c(OC)c1	HCV polymerase	Hepatitis C virus	IC50		<25 µM
C=CCN(C(=O)Cc1c(Cl)cccc1Cl)c1cc(-c2ccccc2)sc1C(=O)O	NS3 ATPase	Hepatitis C virus	IC50		5–20 µM
O=C(O)c1cc2nc(-c3ccccc3OCc3ccccc3)cc(-c3cccc(Cl)c3)n2n1	RNA-dependent RNA polymerase	Hepatitis C virus	IC50		>10 µM
COc1nc(Nc2ccc3cn[nH]c3c2)nc(N2CCN(C)CC2)n1	DNA polymerase	Hepatitis B virus	inhibition	0.1 µg/mL	14%
CCOC(=O)c1cnn2c(-c3ccc(Cl)cc3)cc(-c3ccccc3)nc12	RNA-dependent RNA polymerase	Hepatitis C virus	IC50		>10 µM
O=C(CN1CCN(c2ccccc2)CC1)Nc1cscc1-c1nc(C(=O)O)c(O)c(=O)[nH]1	HCV polymerase	Hepatitis C virus	IC50		<25 µM
O=C(O)c1cc2nc(-c3ccc(Cl)cc3)cc(-c3ccc(Cl)cc3Cl)n2n1	RNA-dependent RNA polymerase	Hepatitis C virus	IC50		>10 µM
CC[C@@H](C=O)NC(=O)[C@@H]1C[C@@H](OCc2cc3c(cc2Cl)OCO3)CN1C(=O)[C@@H](NC(=O)[C@@H](NC(=O)c1cnccn1)C(C)C)C(C)C	NS3 protease	Hepatitis C virus	Ki		1–100 µM
CCS(=O)(=O)Nc1cc(-c2ccccc2)sc1C(=O)O	NS3 ATPase	Hepatitis C virus	IC50		5–20 µM
CCOC(=O)C1=CN(N2CCN(c3nc(Nc4ccc5[nH]ncc5c4)nc(OC)n3)CC2)C(SC)N=C1	DNA polymerase	Hepatitis B virus	IC50		>1 µg/mL
C=C(C)Cc1cc(N(C(=O)c2ccc(Cl)cc2Cl)C(C)C)c(C(=O)O)s1	NS3 ATPase	Hepatitis C virus	IC50		<5 µM
O=C(O)c1nc(-c2sccc2Br)[nH]c(=O)c1O	HCV polymerase	Hepatitis C virus	IC50		<25 µM
O=C(O)c1ccc2c(c1)nc(-c1ccc3nc(-c4ccc(Oc5ccccc5)cc4)ccc3c1)n2C1CCCCC1	NS5B polymerase	Hepatitis C virus	inhibition	33 µM	98.85%
COc1nc(Nc2ccc3cn[nH]c3c2)nc(N2CCN(C(=O)c3cccnc3)CC2)n1	DNA polymerase	Hepatitis B virus	inhibition	0.1 µg/mL	23%
CN1CCN(C(=O)c2ccc3c(c2)nc(-c2cc4ccc(-c5ccccc5-c5ccccc5)nc4cc2F)n3C2CCCCC2)CC1	NS5B polymerase	Hepatitis C virus	inhibition	33 µM	76.67%
Cc1ccc(C(=O)N(C)c2cc(-c3ccccc3Cl)sc2C(=O)O)cc1	NS3 ATPase	Hepatitis C virus	IC50		5–20 µM
CC[C@@H](C=O)NC(=O)[C@@H]1C[C@@H](OC(=O)Nc2ccc(Cl)cc2Cl)CN1C(=O)[C@@H](NC(=O)[C@@H](NC(=O)c1cnccn1)C(C)C)C(C)C	NS3 protease	Hepatitis C virus	Ki		1–100 µM
O=C(O)COc1cccc(-c2ccc3cc(-c4nc5cc(C(=O)O)ccc5n4C4CCCCC4)ccc3n2)c1	NS5B polymerase	Hepatitis C virus	inhibition	100 µM	99.6%
O=C(O)c1cc2nc(-c3ccc(Oc4ccccc4)cc3)cc(-c3ccccc3Cl)n2n1	RNA-dependent RNA polymerase	Hepatitis C virus	IC50		1–10 µM
CC[C@@H](C=O)NC(=O)[C@@H]1C[C@@H](OCc2ccccc2)CN1C(=O)[C@@H](NC(=O)c1cnn(-c2ccccc2)c1C)C(C)C	NS3 protease	Hepatitis C virus	Ki		>100 µM
O=C(Nc1ccccc1)Nc1cccc(-c2nc(C(=O)O)c(O)c(=O)[nH]2)c1	HCV polymerase	Hepatitis C virus	IC50		<100 µM
CCOc1cc2c(C(=O)NC)c(-c3ccc(F)cc3)oc2cc1N(C)S(C)(=O)=O	Nonstructural protein 5B	Hepatitis C virus	IC50		≤0.5 µM
COc1cc(COc2ccc(-c3cnc4c(-c5nn[nH]n5)cnn4c3C3CCCCC3)cc2)cc(OC)c1	RNA-dependent RNA polymerase	Hepatitis C virus	IC50		1–10 µM
CNC(=O)c1c(-c2ccc(F)cc2)oc2cc(C(C)(C)O)c(OC(C)C)cc12	Nonstructural protein 5B	Hepatitis C virus	IC50		≤0.5 µM
Clc1ccc(COc2cccc(-c3cnc4c(-c5nn[nH]n5)cnn4c3C3CCCCC3)c2)cc1Cl	RNA-dependent RNA polymerase	Hepatitis C virus	IC50		1–10 µM
CNC(=O)c1c(-c2ccc(F)cc2)oc2cc(-c3ccnn3C)c(OC(C)C)cc12	Nonstructural protein 5B	Hepatitis C virus	IC50		≤0.5 µM
COc1nc(NCCc2ccccn2)nc(Nc2ccc3[nH]ncc3c2)n1	DNA polymerase	Hepatitis B virus	inhibition	1 µg/mL	65%
Cc1ccc(C(=O)N(C)c2cc(-c3cccc([N+](=O)[O-])c3)sc2C(=O)O)cc1	NS3 ATPase	Hepatitis C virus	IC50		<5 µM
O=C(O)c1nc(-c2ccccc2NS(=O)(=O)c2ccccc2C(F)(F)F)[nH]c(=O)c1O	HCV polymerase	Hepatitis C virus	IC50		<100 µM
O=C(O)c1ccc2c(c1)nc(-c1ccc3nc(-c4cn(-c5cccnc5Cl)c(=O)[nH]c4=O)ccc3c1)n2C1CCCCC1	NS5B polymerase	Hepatitis C virus	inhibition	100 µM	96.38%
CC[C@@H](C=O)NC(=O)[C@@H]1C[C@@H](OCc2ccccc2)CN1C(=O)[C@@H](NC(=O)/C=C/c1ccccc1)C(C)C	NS3 protease	Hepatitis C virus	Ki		1–100 µM
c1cc(COc2ccc(-c3cnc4c(-c5nn[nH]n5)cnn4c3C3CCCCC3)cc2)ccn1	RNA-dependent RNA polymerase	Hepatitis C virus	IC50		<1 µM
O=C(NCc1ccc(Cl)c(Cl)c1)Nc1ccccc1-c1nc(C(=O)O)c(O)c(=O)[nH]1	HCV polymerase	Hepatitis C virus	IC50		<100 µM
C[C@H](NC(=O)c1ccc2cc(-c3nc4cc(C(=O)O)ccc4n3C3CCCCC3)ccc2n1)C(N)=O	NS5B polymerase	Hepatitis C virus	inhibition	33 µM	65.45%
c1cc(OCc2cccs2)cc(-c2cnc3c(-c4nn[nH]n4)cnn3c2C2CCCCC2)c1	RNA-dependent RNA polymerase	Hepatitis C virus	IC50		1–10 µM
CC[C@@H](C=O)NC(=O)[C@@H]1C[C@@H](OCc2ccccc2)CN1C(=O)[C@@H](NC(=O)[C@H](Cc1ccc(OCc2ccccc2)cc1)NC(=O)c1cnccn1)C(C)C	NS3 protease	Hepatitis C virus	Ki		1–100 µM

The last 6 rows once more:

SMILES	protein	species	endpoint	tested at	value
CC[C@@H](C=O)NC(=O)[C@@H]1C[C@@H](OCc2ccccc2)CN1C(=O)[C@@H](NC(=O)/C=C/c1ccccc1)C(C)C	NS3 protease	Hepatitis C virus	Ki		1–100 µM
c1cc(COc2ccc(-c3cnc4c(-c5nn[nH]n5)cnn4c3C3CCCCC3)cc2)ccn1	RNA-dependent RNA polymerase	Hepatitis C virus	IC50		<1 µM
O=C(NCc1ccc(Cl)c(Cl)c1)Nc1ccccc1-c1nc(C(=O)O)c(O)c(=O)[nH]1	HCV polymerase	Hepatitis C virus	IC50		<100 µM
C[C@H](NC(=O)c1ccc2cc(-c3nc4cc(C(=O)O)ccc4n3C3CCCCC3)ccc2n1)C(N)=O	NS5B polymerase	Hepatitis C virus	inhibition	33 µM	65.45%
c1cc(OCc2cccs2)cc(-c2cnc3c(-c4nn[nH]n4)cnn3c2C2CCCCC2)c1	RNA-dependent RNA polymerase	Hepatitis C virus	IC50		1–10 µM
CC[C@@H](C=O)NC(=O)[C@@H]1C[C@@H](OCc2ccccc2)CN1C(=O)[C@@H](NC(=O)[C@H](Cc1ccc(OCc2ccccc2)cc1)NC(=O)c1cnccn1)C(C)C	NS3 protease	Hepatitis C virus	Ki		1–100 µM